PubChem BioAssay AID624099 – ICCB-Longwood | 2012

Aim: 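Knock-downs relieving repression by E2 of an HPV18 LCR luciferase reporter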 (primary screen)
System: human C33A cervical carcinoma cells (HPV-negative) stably expressing BPV1 E2 and an HPV18 LCR luciferase reporter
Knock-down reagent: siRNA pool against human genes, 40 nM
Timing: 72 h
Detection: 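Per-well luciferase luminescence, z-scored on each plate against the plate mean and SD with control wells left out, then averaged across three replicate plates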
Reading the numbers: mean z-score and z-score: higher = stronger reporter signal, weaker E2 silencing
Call rule: 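Hit if mean z-score reaches 2 and two or more of three replicate z-scores also reach 2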
Shown is one part, drawn at random, of about 21,000 reagents tested. 497 of them (2.4%) count as active. 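Higher z means weaker E2 silencing; only reporter increases were scored, and knock-downs that hurt cell survival may mask genuine repressor factors.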 Unmarked entries are inactive. The numbers tell different reagents against one gene apart. Reagent sequences are not shown.

gene symbol | reagent no. | mean z-score | z-score, replicate A | z-score, replicate B | z-score, replicate C
LOC730007 (retired record) | 1 | -0.98 | -1.07 | -1.1 | -0.77
TACR2 (tachykinin receptor 2) | 1 | 0.32 | 0.36 | 0.37 | 0.23
SLCO2A1 | 1 | -0.49 | -0.49 | -0.37 | -0.6
RFPL4A (ret finger protein like 4A) | 1 | 0.04 | 0.2 | 0.17 | -0.27
CSDC2 (cold shock domain containing C2) | 1 | -0.65 | -0.39 | -0.59 | -0.95
NME9 (NME/NM23 family member 9) | 1 | 0.43 | 0.45 | 0.54 | 0.31
LDAF1 (lipid droplet assembly factor 1) | 1 | -1.42 | -1.45 | -1.1 | -1.7
CLEC3B (C-type lectin domain family 3 member B) | 1 | -0.5 | -0.41 | -0.26 | -0.82
GLT6D1 (glycosyltransferase 6 domain containing 1) | 1 | -0.82 | -0.86 | -0.63 | -0.96
TMEM35A (transmembrane protein 35A) | 1 | 0.42 | 0.3 | 0.32 | 0.64
DNMT1 (DNA methyltransferase 1) | 1 | -0.03 | 0.45 | -0.12 | -0.41
NECAP2 (NECAP endocytosis associated 2) | 1 | 2.68 (active) | 2.9 | 2.61 | 2.53
IRAK4 (interleukin 1 receptor associated kinase 4) | 1 | 0.82 | 0.79 | 0.97 | 0.71
TIE1 | 1 | 1.97 | 1.73 | 2.11 | 2.09
DNAAF3 (dynein axonemal assembly factor 3) | 1 | -0.72 | -0.38 | -0.81 | -0.98
PLD4 (phospholipase D family member 4) | 1 | -0.31 | -0.58 | -0.01 | -0.33
ARPIN (actin related protein 2/3 complex inhibitor) | 1 | 0.54 | 0.45 | 0.73 | 0.44
FTSJ3 (FtsJ RNA 2'-O-methyltransferase 3) | 1 | -0.77 | -0.32 | -0.82 | -1.18
SYNM (synemin) | 1 | 1.21 | 0.73 | 0.99 | 1.89
DNAH7 (dynein axonemal heavy chain 7) | 1 | 0.18 | 0.17 | 0.14 | 0.24
HOPX (HOP homeobox) | 1 | -1.36 | -1.29 | -1.48 | -1.31
HCG9 (HLA complex group 9) | 1 | 0.65 | 0.82 | 0.45 | 0.68
GADD45A (growth arrest and DNA damage inducible alpha) | 1 | 2.38 (active) | 2.39 | 2.34 | 2.4
MED31 (mediator complex subunit 31) | 1 | -0.54 | -0.96 | -0.06 | -0.6
SPMIP10 (sperm microtubule inner protein 10) | 1 | -1.75 | -1.72 | -1.6 | -1.94
ZNF248 (zinc finger protein 248) | 1 | 0.08 | -0.28 | -0.13 | 0.63
MS4A15 (membrane spanning 4-domains A15) | 1 | 0.51 | 0.64 | 0.61 | 0.3
PPARA (peroxisome proliferator activated receptor alpha) | 1 | 0.25 | 0.23 | 0.13 | 0.38
PPARA (peroxisome proliferator activated receptor alpha) | 2 | -0.65 | -0.78 | -0.82 | -0.35
PRKCQ (protein kinase C theta) | 1 | 0.62 | 0.49 | 0.68 | 0.71
SAMHD1 | 1 | 2.02 (active) | 2.14 | 1.86 | 2.07
P2RX6 (purinergic receptor P2X 6) | 1 | 0.85 | 0.94 | 0.58 | 1.04
LINC00260 (long independently transcribed non-coding RNA 260) | 1 | -0.31 | -0.59 | -0.27 | -0.06
LCE1B (late cornified envelope 1B) | 1 | -0.5 | -0.36 | -0.48 | -0.67
PBRM1 (polybromo 1) | 1 | 0.27 | 0.63 | 0.58 | -0.39
ACTR8 (actin related protein 8) | 1 | 1.05 | 0.86 | 1.19 | 1.1
KIAA0408 | 1 | 0.19 | 0.35 | -0.01 | 0.23

A run of entries taken from the entries so far, for reference:
gene symbol | reagent no. | mean z-score | z-score, replicate A | z-score, replicate B | z-score, replicate C
SYNM (synemin) | 1 | 1.21 | 0.73 | 0.99 | 1.89
DNAH7 (dynein axonemal heavy chain 7) | 1 | 0.18 | 0.17 | 0.14 | 0.24
HOPX (HOP homeobox) | 1 | -1.36 | -1.29 | -1.48 | -1.31
HCG9 (HLA complex group 9) | 1 | 0.65 | 0.82 | 0.45 | 0.68
GADD45A (growth arrest and DNA damage inducible alpha) | 1 | 2.38 (active) | 2.39 | 2.34 | 2.4
MED31 (mediator complex subunit 31) | 1 | -0.54 | -0.96 | -0.06 | -0.6
SPMIP10 (sperm microtubule inner protein 10) | 1 | -1.75 | -1.72 | -1.6 | -1.94
ZNF248 (zinc finger protein 248) | 1 | 0.08 | -0.28 | -0.13 | 0.63
MS4A15 (membrane spanning 4-domains A15) | 1 | 0.51 | 0.64 | 0.61 | 0.3
PPARA (peroxisome proliferator activated receptor alpha) | 1 | 0.25 | 0.23 | 0.13 | 0.38
PPARA (peroxisome proliferator activated receptor alpha) | 2 | -0.65 | -0.78 | -0.82 | -0.35

Next records:
gene symbol | reagent no. | mean z-score | z-score, replicate A | z-score, replicate B | z-score, replicate C
CD300C (CD300c molecule) | 1 | 0.52 | 0.76 | 0.31 | 0.47
HCCAT5 (hepatocellular carcinoma associated transcript 5) | 1 | 0.22 | 0.31 | 0.15 | 0.19
TMEM254 (transmembrane protein 254) | 1 | 0.4 | 0.77 | 0.31 | 0.12
SYT9 (synaptotagmin 9) | 1 | 1.05 | 0.74 | 0.94 | 1.46
PAXBP1 (PAX3 and PAX7 binding protein 1) | 1 | -0.4 | -0.23 | -0.43 | -0.52
DELEC1 (deleted in esophageal cancer 1) | 1 | 0.6 | 0.66 | 0.67 | 0.48
ERBB4 (erb-b2 receptor tyrosine kinase 4) | 1 | 2.54 (active) | 3.04 | 2.32 | 2.27
SYCP2 (synaptonemal complex protein 2) | 1 | -1.44 | -1.48 | -1.43 | -1.4
LOC389330 (retired record) | 1 | 2.12 (active) | 2.27 | 2.03 | 2.05
ZNF256 (zinc finger protein 256) | 1 | -0.61 | -0.48 | -0.64 | -0.7
ZNF285 (zinc finger protein 285) | 1 | -0.18 | -0.41 | 0.02 | -0.15
NAT1 (N-acetyltransferase 1) | 1 | 0.6 | 0.33 | 0.8 | 0.67
LOC149709 (retired record) | 1 | -1.34 | -1.37 | -1.23 | -1.41
WIPI1 (WD repeat domain, phosphoinositide interacting 1) | 1 | -0.34 | -0.27 | -0.53 | -0.22
CHCHD2 (coiled-coil-helix-coiled-coil-helix domain containing 2) | 1 | -0.3 | 0.13 | -0.26 | -0.78
CRY1 (cryptochrome circadian regulator 1) | 1 | -0.03 | -0.15 | 0 | 0.07
RNASEL (ribonuclease L) | 1 | 0.51 | 0.5 | 0.82 | 0.2
TNFSF13 (TNF superfamily member 13) | 1 | 0.02 | -0.18 | 0.16 | 0.09
ADAMTS16 (ADAM metallopeptidase with thrombospondin type 1 motif 16) | 1 | -0.83 | -0.82 | -0.83 | -0.85
PRSS27 (serine protease 27) | 1 | -0.01 | -0.05 | -0.23 | 0.25
MYEOV (myeloma overexpressed) | 1 | 0.03 | 0.3 | -0.08 | -0.12
ZNF25 (zinc finger protein 25) | 1 | 0.65 | 0.81 | 0.49 | –
WASHC4 (WASH complex subunit 4) | 1 | 0.32 | 0.33 | 0.37 | 0.26
KRTAP13-4 (keratin associated protein 13-4) | 1 | -0.65 | -0.73 | -0.71 | -0.5
MPIG6B (megakaryocyte and platelet inhibitory receptor G6b) | 1 | -0.2 | -0.46 | -0.02 | -0.11
RUFY1 (RUN and FYVE domain containing 1) | 1 | 1.02 | 1.12 | 0.7 | 1.24
PDLIM7 (PDZ and LIM domain 7) | 1 | 0.55 | 0.49 | 0.68 | 0.48
MYL9 (myosin light chain 9) | 1 | -0.67 | -0.65 | -0.82 | -0.54
CNGA1 (cyclic nucleotide gated channel subunit alpha 1) | 1 | 0.5 | 0.5 | 0.38 | 0.63
PNKP (polynucleotide kinase 3'-phosphatase) | 1 | 0.79 | 0.73 | 0.64 | 1
NAP1L1 (nucleosome assembly protein 1 like 1) | 1 | 0.13 | 0.25 | 0.14 | 0
PBXIP1 (PBX homeobox interacting protein 1) | 1 | 1.3 | 2 | 1.12 | 0.79
HNRNPLL (heterogeneous nuclear ribonucleoprotein L like) | 1 | 0.87 | 0.85 | 0.84 | 0.93
OR51B2 (olfactory receptor family 51 subfamily B member 2) | 1 | -0.37 | -0.56 | -0.58 | 0.02
CCL15 (C-C motif chemokine ligand 15) | 1 | 1.28 | 1.37 | 1.38 | 1.09
TBX4 (T-box transcription factor 4) | 1 | -0.46 | -0.57 | -0.5 | -0.3
